The target in assay [1] is hemagglutinin H1 (A/New Caledonia/20/1999) (influenza A virus A/New …). In words: yeast surface display titration.
In assay [2] the target is hemagglutinin H1 A/Beijing/262/1995 (influenza A virus A/Beijing/262/1995 …). The assay is described as follows: BLI (Octet), biotinylated HA on streptavidin sensors.
Assay [3] deals with hemagglutinin H3 (A/Victoria/361/2011) (influenza A virus A/Victoria/361/2011 …). Described as above.
For assay [4], the target named is hemagglutinin H2 (A/Adachi/2/1957-H2N2) (influenza A virus A/Adachi/2/1957 (H2N2)). Described as above.
Assay [5] deals with hemagglutinin H3 A/Panama/2007/1999 (influenza A virus A/Panama/2007/1999 …). The assay is described as above.
Assay [6] has as its target hemagglutinin H1 A/USSR/90/1977 (influenza A virus A/USSR/90/1977 (H1), UniProt P03453 18-529). The assay is described as follows: BLI (Octet); text of paragraph 293: 'a few strains could not be targeted'. In general terms: Biolayer interferometry detects binding as a change in optical thickness at a sensor tip.
The target in assay [7] is hemagglutinin H11 A/duck/England/1/1956 (influenza A virus A/duck/England/1/1956 …, UniProt P04661 17-531).
The target in assay [8] is hemagglutinin H12 A/duck/Alberta/60/1976 (influenza A virus …, UniProt P03446 17-530).
Assay [9] concerns the target hemagglutinin H9 A/turkey/Wisconsin/1/1966 (influenza A virus …, UniProt P03457 19-526).

As usually defined, the Kd is the constant that tells how readily two partners part at equilibrium. The low end stands for tighter binding, the high end for weaker binding.

B1: SB24alt1-1 (designed binder)
chain: ASGMLAISMDTDKISNSFEDCKYFQLYVLSAGWTNTIFNDESGKEEIVKMSVDAIICKNISEENYKKFSKKIEIYHAEGDDVDKNISLFLEGELSKISNP
Consider B1, for which binding in assay [1] was characterised by a dissociation constant (Kd) of 436 nM.

B2: Hsc1 (SEQ ID NO:135) fused to HAA.1c (SEQ ID NO:227) via the triLong linker (SEQ ID NO: 352), trimer (designed binder)
chain: MEEVVLITVPSEEVARTIAKALVEERLAACVNIVPGLTSIYRWQGEVVEDQELLLLVKTTTHAFPKLKERVKALHPYTVPEIVALPIAQGNQEYLDWLRENAGGGGSGGSGIVNVPNCNTTKYQQLARTAVAIYNYHEQAHLTFVENLNCKEQLGEGDYYYITLAATDDAGKKAIYEAKIGVVESAGWTGVEEFKLV
Regarding B2, the Kd in assay [2] is 2.8 nM; in assay [3] it was < 1 nM; in assay [4], < 1 nM; in [5], 56.5 nM; in [8] it was 9.2 nM; in [9] it was 9.4 nM. The binding result in [6] and in assay [7] was “no binding” each time.
